Measured values from several laboratories, pooled; numbers as filed in NIAID ChemDB.

All rows: toxicity to cultured cells; cells: HepG2.2.15; measure: CC50

Lines come from different laboratories, so protocols vary. CCn is the concentration with n% toxicity to the cells. Blank or dashed fields: not listed here.

smiles | read by | result
C=CCc1cccc(Oc2cc(CC=C)cc(O)c2O)c1 | MTT | 180 µM
CC(=O)[C@]1(O)CC[C@@]2(O)[C@]1(C)[C@H](OC(=O)/C=C(\C)C(C)C)CC1[C@@]3(C)CC[C@H](OC(=O)/C=C/c4cccc(C(F)(F)F)c4)CC3=CC[C@]12O | MTT | >1270 µM
COc1ccc([C@H]2OC[C@H]3[C@@H]2CO[C@@H]3c2ccc(OC)c(O)c2)cc1O | MTT | 1090 µM
CCC[N+](O)(CCC)CCc1c[nH]c2ccccc12 | MTT | >100 µM
Cc1cn([C@H]2C[C@H](OP([O-])(=S)OC[C@H]3O[C@@H](n4cnc5c(N)ncnc54)C[C@@H]3O)[C@@H](COP([O-])(=S)O[C@H]3C[C@H](n4ccc(=O)[nH]c4=O)O[C@@H]3CO)O2)c(=O)[nH]c1=O | - | >300 µM
O=C(/C=C/c1ccc(O)c(O)c1)O[C@H]1CC(O)(C(=O)O)C[C@H](OC(=O)/C=C/c2ccc(O)c(O)c2)C1O | MTT | >1653 µM
Cc1cn([C@H]2CC[C@@H](CO)O2)c(=O)[nH]c1=O | - | 82 µM
Nc1nc(=O)n([C@@H]2CC[C@H](CO)O2)cc1F | - | 438 µM
Nc1nc(=O)c2ncn([C@@H]3O[C@H](CO)C[C@H]3O)c2c(=O)[nH]1 | - | >170 µM
[N-]=[N+]=N[C@H]1C[C@H](n2ccc(N)nc2=O)O[C@@H]1CO | - | 357 µM
O=C(/C=C/C=C/c1ccccc1)[Se]c1ccccc1 | MTT | >100 µM
CCc1cn([C@@H]2O[C@H](CO)[C@@H](O)[C@@H]2F)c(=O)[nH]c1=O | - | 228 µM
CC(=O)[C@]1(O)CC[C@@]2(O)[C@]1(C)[C@H](OC(=O)/C=C(\C)C(C)C)CC1[C@@]3(C)CC[C@H](OC(=O)CN(C)C)CC3=CC[C@]12O | - | 3.6 µM
Nc1ccn([C@H]2CC[C@@H](CO)O2)c(=O)n1 | - | 39 µM
COC(C)c1ccc(O)c(O)c1 | MTT | 3070 µM
CC(C)(C)[N+](O)(CCc1c[nH]c2ccccc12)C(C)(C)C | MTT | >100 µM
Nc1nc(=O)n([C@H]2CC[C@@H](CO)O2)cc1F | - | 336 µM
CNc1nc(=O)c2ncn([C@@H]3O[C@H](CO)[C@@H](O)[C@H]3O)c2c(=O)[nH]1 | - | >100 µM
O=C(/C=C/c1ccc(O)c(O)c1)OC1[C@@H](O)CC(O)(C(=O)O)C[C@@H]1O | MTT | >1580 µM
O=C(CCc1ccccc1)[Se]c1ccccc1 | MTT | >100 µM
O=C(O)c1ccccc1O | MTT | 4330 µM
O=c1[nH]c(=O)n([C@@H]2O[C@H](CO)[C@@H](O)[C@@H]2F)cc1I | - | 212 µM
O=C(C=Cc1ccc(O)c(O)c1)O[C@@H]1C[C@](O)(C(=O)O)C[C@@H](O)[C@H]1O | - | >1380 µM
O=C(/C=C/c1ccccc1)[Se]c1ccccc1 | MTT | >100 µM
C[C@@H]1O[C@@H](O[C@H]2[C@H](O)[C@@H](O)[C@H](O[C@H]3CC[C@]4(C)[C@H]5C=C[C@]67OC[C@@]8(CCC(C)(C)C[C@H]86)[C@@H](O)C[C@@]7(C)[C@]5(C)CC[C@H]4C3(C)C)O[C@@H]2CO[C@@H]2O[C@H](CO)[C@@H](O)[C@H](O)[C@H]2O)[C@H](O)[C@H](O)[C@H]1O | - | >40 µg/mL
CC(C)c1cc2c(cc1O)[C@@]1(C)CC[C@@H](O)C(C)(C)[C@@H]1CC2 | sulforhodamine | <20 µg/mL
Nc1ccn([C@@H]2CC[C@H](CO)O2)c(=O)n1 | - | 219 µM
CCn1cc(C(=O)O)c(=O)c2ccc(C)nc21 | - | 196 µM
C[C@H]1O[C@@H](O[C@H]2CC[C@@]3(C)[C@@H](CC[C@]4(C)[C@@H]3C=C[C@]35OC[C@@]6(CCC(C)(C)C[C@H]63)[C@H](O)C[C@]54C)[C@]2(C)CO)[C@H](O)[C@@H](O[C@@H]2O[C@H](CO)[C@@H](O)[C@H](O)[C@H]2O)[C@H]1O | - | 10 µg/mL
CC[N+](O)(CC)CCc1c[nH]c2ccccc12 | MTT | >100 µM
CCC(=O)c1ccc(O)c(OC)c1 | MTT | 2760 µM
COc1ccc(/C=C/C=C/C(=O)[Se]c2ccccc2)cc1 | MTT | >100 µM
Nc1nc2c(ncn2[C@@H]2C[C@H](CO)[C@@H](O)C2)c(=O)[nH]1 | - | 12 µM
CC(c1ccc(O)c(O)c1)N1C=NC2C(N)=NC=NC21 | MTT | 1900 µM
COc1ccc(-c2cc(=O)c3c(OC)cc(OC)c([C@H]4C(=O)c5c(OC)cc(OC)cc5O[C@@H]4c4ccc(OC)cc4)c3o2)cc1 | - | 14 µM
CCNc1nc(=O)c2ncn([C@@H]3O[C@H](CO)[C@@H](O)[C@H]3O)c2c(=O)[nH]1 | - | >100 µM

The last 5 rows once more:

smiles,read by,result
COc1ccc(/C=C/C=C/C(=O)[Se]c2ccccc2)cc1,MTT,>100 µM
Nc1nc2c(ncn2[C@@H]2C[C@H](CO)[C@@H](O)C2)c(=O)[nH]1,-,12 µM
CC(c1ccc(O)c(O)c1)N1C=NC2C(N)=NC=NC21,MTT,1900 µM
COc1ccc(-c2cc(=O)c3c(OC)cc(OC)c([C@H]4C(=O)c5c(OC)cc(OC)cc5O[C@@H]4c4ccc(OC)cc4)c3o2)cc1,-,14 µM
CCNc1nc(=O)c2ncn([C@@H]3O[C@H](CO)[C@@H](O)[C@H]3O)c2c(=O)[nH]1,-,>100 µM